{"source": "PubChem BioAssay AID504761 (Drosophila RNAi Screening Center, 2011)", "purpose": "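Fly genes whose silencing reduces dengue virus type 2 infection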 (primary screen)", "system": "D.Mel-2 cells from Drosophila", "reagents": "long dsRNA against Drosophila genes", "treatment": "infection with dengue virus type 2; dose and infection time not stated", "read-out": "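Cells stained for dengue envelope protein and imaged; percent of infected cells per well on duplicate plates, ranked by infection, with stained nuclei counted for cell number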", "reading the numbers": "infection score: higher = more virus-infected cells", "call rule": "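Very low infection ranking in both replicate wells (chance probability at most 0.065), then a retest showing infection dropped 1.5-fold or more at p below 0.05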", "calls": "active = confirmed: knock-down lowers infection; inactive = not picked or not confirmed", "note": "In all, the deposit lists about 22,000 reagents; below is an unselected part of those that have a named target and a result. Of all reagents, 116 (0.52%) got an active call. 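Calls depend on retest data that are not deposited; infection was ranked per plate without normalising between plates; the unit of the infection score is not given.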 Entries without a mark were called inactive. Names joined by + are all predicted targets of the reagent. Not all columns of the deposit are shown. Not stated in the record: the amount of reagent, the time to read-out."}
{"Target gene":"Pabp2","amplicon":"DRSC07501","infection score, replicate 1":31.8}
{"Target gene":"CG14764","amplicon":"DRSC05072","infection score, replicate 1":1.23}
{"Target gene":"CG14764","amplicon":"DRSC06498","infection score, replicate 1":9.2}
{"Target gene":"CG14764","amplicon":"DRSC06844","infection score, replicate 1":9.83}
{"Target gene":"Prosalpha5","amplicon":"DRSC07514","infection score, replicate 1":4.9}
{"Target gene":"ERp60","amplicon":"DRSC07309","infection score, replicate 1":10.3}
{"Target gene":"ERp60","amplicon":"DRSC24471","infection score, replicate 1":2.05}
{"Target gene":"CR32011 + CR32010 + PlexB + 1 more","amplicon":"DRSC21664","infection score, replicate 1":1.32}
{"Target gene":"CR32011 + CR32010 + PlexB + 1 more","amplicon":"DRSC26099","infection score, replicate 1":6.34}
{"Target gene":"Elo68beta","amplicon":"DRSC09860","infection score, replicate 1":1.24}
{"Target gene":"CG4951","amplicon":"DRSC15682","infection score, replicate 1":15.9}
{"Target gene":"Gr93b","amplicon":"DRSC22063","infection score, replicate 1":2.36}
{"Target gene":"inaF-A","amplicon":"DRSC19660","infection score, replicate 1":32.8}
{"Target gene":"BckdhA","amplicon":"DRSC16395","infection score, replicate 1":4.1}
{"Target gene":"Wnt6","amplicon":"DRSC02795","infection score, replicate 1":10.7}
{"Target gene":"Wnt6","amplicon":"DRSC26973","infection score, replicate 1":10.3}
{"Target gene":"Hr96","amplicon":"DRSC16707","infection score, replicate 1":5.86}
{"Target gene":"CG32024","amplicon":"DRSC21883","infection score, replicate 1":2.29}
{"Target gene":"CG5550","amplicon":"DRSC06943","infection score, replicate 1":8.9}
{"Target gene":"CG5550","amplicon":"DRSC29735","infection score, replicate 1":12.9}
{"Target gene":"CG30440","amplicon":"DRSC04775","infection score, replicate 1":7.36}
{"Target gene":"CG30440","amplicon":"DRSC04845","infection score, replicate 1":1.81}
{"Target gene":"CG30440","amplicon":"DRSC04855","infection score, replicate 1":2.36}

Not a retest: 2 of the entries above.
{"Target gene":"CG14764","amplicon":"DRSC06844","infection score, replicate 1":9.83}
{"Target gene":"Prosalpha5","amplicon":"DRSC07514","infection score, replicate 1":4.9}
